Measured values from several laboratories, pooled; numbers as filed in NIAID ChemDB.

Shared fields: tests in culture; agent: Mycobacterium avium complex; read-out: MIC

Rows are shuffled and stem from different studies.

CO[C@H]1/C=C/O[C@@]2(C)Oc3c(C)c(O)c4c(O)c(c(/C=N/N5CCN(C6CCCC6)CC5)c(O)c4c3C2=O)NC(=O)/C(C)=C\C=C\[C@H](C)[C@H](O)[C@@H](C)[C@@H](O)[C@@H](C)[C@H](OC(C)=O)[C@@H]1C ; strain or isolate: Serotype 4 ; value: 10 µg/mL
CC1COc2c(N3CCN(C)CC3)c(F)cc3c(=O)c(C(=O)O)cn1c23 ; strain or isolate: 1110/HIV- ; value: 8 µg/mL
C[C@@H]1CN(c2c(F)c(N)c3c(=O)c(C(=O)O)cn(C4CC4)c3c2F)C[C@H](C)N1 ; strain or isolate: 16 ; method: broth dilution ; value: 0.5 µg/mL
O=[N+]([O-])c1cccc(CSc2nc3ccccc3[nH]2)c1 ; strain or isolate: MY330/88 ; value: >16 µM
Cc1cc(CN2CCN(C)CC2)c(C)n1Cc1ccccc1 ; strain or isolate: 103317 ; value: >64 µg/mL
NCC[C@H](O)C(=O)N[C@@H]1C[C@H](N)[C@@H](O[C@H]2O[C@H](CN)[C@@H](O)[C@H](O)[C@H]2O)[C@H](O)[C@H]1O[C@H]1O[C@H](CO)[C@@H](O)[C@H](N)[C@H]1O ; strain or isolate: 1423/HIV+ ; value: 2 µg/mL
CC[C@H]1OC(=O)[C@H](C)[C@@H](O[C@H]2C[C@@](C)(OC)[C@@H](O)[C@H](C)O2)[C@H](C)[C@@H](O[C@@H]2O[C@H](C)C[C@H](N(C)C)[C@H]2O)[C@](C)(OC)C[C@@H](C)C(=O)[C@H](C)[C@@H](O)[C@]1(C)O ; strain or isolate: 3213 ; value: 8 µg/mL
NC[C@H]1O[C@H](O[C@H]2[C@H](O[C@@H]3O[C@H](CO)[C@@H](O)[C@H]3O)[C@@H](O)[C@H](N)C[C@@H]2N)[C@H](N)[C@@H](O)[C@@H]1O ; strain or isolate: TMC 1469 ; value: 1.56 µg/mL
O=C(O)c1cn(C2CC2)c2c(F)c(N3CC4CC3CN4)c(F)cc2c1=O ; strain or isolate: 1760694 ; value: 4 µg/mL
c1ccc(CCSc2nc3ccccc3[nH]2)cc1 ; strain or isolate: MY330/88 ; value: >125 µM
CO[C@H]1/C=C/O[C@@]2(C)Oc3c(C)c(O)c4c(O)c(c(/C=N/N5CCN(C)CC5)c(O)c4c3C2=O)NC(=O)/C(C)=C\C=C\[C@H](C)[C@H](O)[C@@H](C)[C@@H](O)[C@@H](C)[C@H](OC(C)=O)[C@@H]1C ; strain or isolate: 3215 ; value: 2 µg/mL
NC[C@@H]1O[C@H](O[C@H]2[C@@H](O)[C@H](O[C@@H]3[C@@H](O)[C@H](N)C[C@H](N)[C@H]3O[C@H]3O[C@H](CO)[C@@H](O)[C@H](O)[C@H]3N)O[C@@H]2CO)[C@H](N)[C@@H](O)[C@@H]1O ; strain or isolate: 559/HIV+ ; value: <3.12 µg/mL
O=[N+]([O-])c1ccc(CSc2nc3ccccc3[nH]2)c([N+](=O)[O-])c1 ; strain or isolate: MY330/88 ; value: 32 µM
NCC[C@H](O)C(=O)N[C@@H]1C[C@H](N)[C@@H](O[C@H]2O[C@H](CN)[C@@H](O)[C@H](O)[C@H]2O)[C@H](O)[C@H]1O[C@H]1O[C@H](CO)[C@@H](O)[C@H](N)[C@H]1O ; strain or isolate: SK46/HIV+ ; value: 2.5 µg/mL
CC[C@@H](CO)NCCN[C@@H](CC)CO ; strain or isolate: 1129 ; value: 8 µg/mL
NC[C@H]1O[C@H](O[C@H]2[C@H](O)[C@@H](O[C@H]3O[C@H](CO)[C@@H](O)[C@H](N)[C@H]3O)[C@H](N)C[C@@H]2N)[C@H](N)[C@@H](O)[C@@H]1O ; strain or isolate: TMC 1403 ; value: 0.39 µg/mL
CC[C@@H](CO)NCCN[C@@H](CC)CO ; strain or isolate: 13887 (serotype 14) ; value: 0.8 µg/mL
O=[N+]([O-])c1cccc(F)c1CSc1nc2ccccc2[nH]1 ; strain or isolate: MY330/88 ; value: >250 µM
CC1CN(c2cc3c(cc2F)c(=O)c(C(=O)O)cn3-c2ccc(F)cc2F)CCN1 ; strain or isolate: 3214 ; value: 8 µg/mL
Brc1ccc(CSc2nc3ccccc3[nH]2)cc1 ; strain or isolate: MY330/88 ; value: >62 µM
CNC1CCN(c2c(F)cc3c(=O)c(C(=O)O)cn(C4CC4)c3c2F)C1 ; strain or isolate: PI12/39 ; value: 2 µg/mL
NC[C@H]1O[C@H](O[C@H]2[C@H](O)[C@@H](O[C@H]3O[C@H](CO)[C@@H](O)[C@H](N)[C@H]3O)[C@H](N)C[C@@H]2N)[C@H](O)[C@@H](O)[C@@H]1O ; strain or isolate: N-265 (HIV-) ; value: 8 µg/mL
CC[C@H]1OC(=O)[C@H](C)[C@@H](O[C@H]2C[C@@](C)(OC)[C@@H](O)[C@H](C)O2)[C@H](C)[C@@H](O[C@@H]2O[C@H](C)C[C@H](N(C)C)[C@H]2O)[C@](C)(OC)C[C@@H](C)C(=O)[C@H](C)[C@@H](O)[C@]1(C)O ; strain or isolate: 1171 ; value: 4 µg/mL
NC[C@H]1O[C@H](O[C@H]2[C@H](O)[C@@H](O[C@H]3O[C@H](CO)[C@@H](O)[C@H](N)[C@H]3O)[C@H](N)C[C@@H]2N)[C@H](O)[C@@H](O)[C@@H]1O ; strain or isolate: Isolate C-46 ; value: 200 µg/mL
Cc1c(CN2CCOCC2)c(CN2CCOCC2)c(-c2ccc(Cl)cc2)n1C1CCCCC1 ; strain or isolate: 103317 ; value: 8 µg/mL
C[C@@H]1CN(c2c(F)c(N)c3c(=O)c(C(=O)O)cn(C4CC4)c3c2F)C[C@H](C)N1 ; strain or isolate: LPR ; value: 4 µg/mL
NCCC(O)C(N)CC(=O)NC1CNC(=O)C(C2CCN=C(N)N2)NC(=O)/C(=C/NC(N)=O)NC(=O)C(CO)NC(=O)C(CO)NC1=O ; strain or isolate: 13016 (serotype 4) ; value: 6.25 µg/mL
CO[C@H]1/C=C/O[C@@]2(C)Oc3c(C)c(O)c4c(O)c(c(/C=N/N5CCN(C)CC5)c(O)c4c3C2=O)NC(=O)/C(C)=C\C=C\[C@H](C)[C@H](O)[C@@H](C)[C@@H](O)[C@@H](C)[C@H](OC(C)=O)[C@@H]1C ; strain or isolate: 101 ; value: 16 µg/mL
Cc1ccc(-c2ccc(Cl)cc2)n1C1CCCCC1 ; strain or isolate: 103317 ; value: >16 µg/mL
CCCCCSc1nc2ccccc2[nH]1 ; strain or isolate: MY330/88 ; value: >62 µM
NC[C@@H]1O[C@H](O[C@H]2[C@@H](O)[C@H](O[C@@H]3[C@@H](O)[C@H](N)C[C@H](N)[C@H]3O[C@H]3O[C@H](CO)[C@@H](O)[C@H](O)[C@H]3N)O[C@@H]2CO)[C@H](N)[C@@H](O)[C@@H]1O ; strain or isolate: TMC 1406 ; value: <0.01 µg/mL
CCn1cc(C(=O)O)c(=O)c2cc(F)c(N3CCN(C)CC3)cc21 ; strain or isolate: CIPT 140310034 ; value: 20 µg/mL
CC(C)(N)C1CCN(c2c(F)cc3c(=O)c(C(=O)O)cn(C4CC4)c3c2F)C1 ; strain or isolate: 1915112 ; value: 16 µg/mL
CO[C@H]1/C=C/O[C@@]2(C)Oc3c(C)c(O)c4c(O)c(c(/C=N/N5CCN(C6CCCC6)CC5)c(O)c4c3C2=O)NC(=O)/C(C)=C\C=C\[C@H](C)[C@H](O)[C@@H](C)[C@@H](O)[C@@H](C)[C@H](OC(C)=O)[C@@H]1C ; strain or isolate: 101 ; value: 4 µg/mL
CO[C@H]1/C=C/O[C@@]2(C)Oc3c(C)c(O)c4c(O)c(c(/C=N/N5CCN(C/C=C/c6ccccc6)CC5)c(O)c4c3C2=O)NC(=O)/C(C)=C\C=C\[C@H](C)[C@H](O)[C@@H](C)[C@@H](O)[C@@H](C)[C@H](OC(C)=O)[C@@H]1C ; strain or isolate: CH1 ; value: 0.12 µg/mL
Cc1ccc(C)[nH]1 ; strain or isolate: 103317 ; value: >16 µg/mL
CO[C@H]1/C=C/O[C@@]2(C)Oc3c(C)c(O)c4c(O)c(c(/C=N/N5CCN(C)CC5)c(O)c4c3C2=O)NC(=O)/C(C)=C\C=C\[C@H](C)[C@H](O)[C@@H](C)[C@@H](O)[C@@H](C)[C@H](OC(C)=O)[C@@H]1C ; strain or isolate: CIPT 140310003 (smooth) ; value: 0.5 µg/mL
Clc1ccccc1C(c1ccccc1)(c1ccccc1)n1ccnc1 ; strain or isolate: 101 ; value: 0.03 µg/mL
CN[C@@H]1[C@@H](O)[C@@H](O[C@@H]2[C@@H](O)[C@H](O[C@H]3O[C@H](CN)CC[C@H]3N)[C@@H](N)C[C@H]2N)OC[C@]1(C)O ; strain or isolate: TMC 1473 ; value: 0.1 µg/mL
NCC1(O)CCN(c2c(F)cc3c(=O)c(C(=O)O)cn(N4CC4)c3c2F)C1 ; strain or isolate: 1760694 ; value: 16 µg/mL
CCn1cc(C(=O)O)c(=O)c2cc(F)c(N3CCNCC3)cc21 ; strain or isolate: CIPT 140310023 ; value: 40 µg/mL
NCC1CN(c2c(F)cc3c(=O)c(C(=O)O)cn(C4CC4)c3c2F)CC1c1ccccc1 ; strain or isolate: 1172733 ; value: 16 µg/mL
Cc1c(CN2CCN(C)CC2)cc(-c2ccc(Cl)cc2)n1C1CCCCC1 ; strain or isolate: 103317 ; value: >64 µg/mL
N#Cc1ccc(CSc2nc3ccccc3[nH]2)cc1 ; strain or isolate: MY330/88 ; value: 62 µM
CCCCCCn1c(-c2ccc(Cl)cc2)cc(CN2CCN(C)CC2)c1C ; strain or isolate: 103317 ; value: >64 µg/mL
O=C(O)c1cn(C2CC2)c2c(F)c(N3CCNCC3)c(F)cc2c1=O ; strain or isolate: 1760694 ; value: 4 µg/mL
CC[C@@H](CO)NCCN[C@@H](CC)CO ; strain or isolate: 921-5 ; value: 1.9 µg/mL

The first 2 rows once more:

compound,strain or isolate,method,value
CO[C@H]1/C=C/O[C@@]2(C)Oc3c(C)c(O)c4c(O)c(c(/C=N/N5CCN(C6CCCC6)CC5)c(O)c4c3C2=O)NC(=O)/C(C)=C\C=C\[C@H](C)[C@H](O)[C@@H](C)[C@@H](O)[C@@H](C)[C@H](OC(C)=O)[C@@H]1C,Serotype 4,,10 µg/mL
CC1COc2c(N3CCN(C)CC3)c(F)cc3c(=O)c(C(=O)O)cn1c23,1110/HIV-,,8 µg/mL

Blank or dashed fields: not listed here.